The values that follow come from PMC9678781.

What is called Kd is the free concentration of one partner at which half of the binding sites on the other are occupied at equilibrium, for simple one-to-one binding. Higher therefore signals weaker binding.

In the test the target is SARS-CoV-2 RBD-SD1 (aa 319-591), 8xHis-tagged (SARS-CoV-2) (UniProt P0DTC2). The test is described as follows: FACS. A general note: A flow cytometer gives signals particle by particle.

CR3022-scFv returned an equilibrium dissociation constant (Kd) of 33 nM.
